For one compound, z-score results are on record in PubChem BioAssay AID745 (Emory University Molecular Libraries Screening Center, 2007).

Structures are written as SMILES. The entries are a selection whose mix differs from that of the whole data set. Calls of active or inactive are those of the source. Cut-off read from the data, not from the text of the source: active = z-score below about -3; inactive = the rest.

The experiment can be described thus: inhibitors of measles virus growth in cells, primary screen, measles RdRp inhibitor project, cell-based, single point, HTS (AID 745). The following applies: infected Vero cells, GFP fluorescence, 64 h; active compounds read low.
Regarding `CC1CN(C)C(C)CC1Nc1ccccc1` (stereo unspecified), the z-score is inactive: 0.23.
